Compound potency records, mixed from different reports. Data source: NIAID ChemDB in PubChem.

Common to all: cytotoxicity tests; cells: HepG2; read-out: CC50

Blank or dashed fields: not listed here. Rows are shuffled and stem from different studies. CCn is the concentration with n% toxicity to the cells.

structure	method	result
CCOC(=O)COc1ccc(CN(C(=O)c2ccc(-c3ccc4c(c3)OCO4)cc2)C(C)C)cc1	-	>20 µM
Cc1cc(NC(=O)c2c(C)c(C(=O)C(=O)NCC(C)(C)O)n(C)c2-c2nccs2)ccc1F	MTT	>30 µM
CCOC(=O)CCCCCOc1cccc(CN(C(=O)c2ccc(-c3cc(OC)ccc3F)cc2)C(C)C)c1	-	>20 µM
Cc1c(C(=O)Nc2ccc(F)c(-c3ncn[nH]3)c2)c(C)n(C)c1C(=O)C(=O)NC(C)(C)C	MTT	>30 µM
COc1ccc(F)cc1CNCCCNc1ccnc2cc(-c3ccc(F)cc3)ccc12	fluorescence	0.77 µM
CNC(=O)c1ccc(-n2c(CC(C)C)nc3c(c2=O)C[C@@H](C)N(C(=O)c2ccc(Br)c(C(F)(F)F)c2)C3)cc1	luminescence	>50 µM
Cc1cc(NC(=O)c2c(C)c(C(=O)C(=O)NC3CCC(O)CC3)n(C)c2-c2cccnc2)ccc1F	MTT	>30 µM
CNC(=O)c1cc(-n2c(NC(C)C)nc3c(c2=O)C[C@@H](C)N(C(=O)c2ccc(Br)c(C(F)(F)F)c2)C3)on1	luminescence	>50 µM
Cc1cc(F)cc(NC(=O)c2c(C)c(C(=O)C(=O)NC(C)(C)C)n(C)c2C)c1	MTT	>30 µM
CCOC(OCC)C1=NCCc2cc(OC)c(OC)cc21	-	<7.5 µM
COc1ccc(F)cc1CNCCCNc1ccnc2cc(CC3CCCCC3)ccc12	fluorescence	1.83 µM
Cc1cc(NC(=O)c2c(C(C)C)c(C(=O)C(=O)NC3CCC(O)CC3)n(C)c2C)ccc1F	MTT	>30 µM
CCN(CC)c1nc2c(c(=O)n1C1CCC(C(=O)NC)CC1)C[C@@H](C)N(C(=O)c1ccc(Cl)c(C(F)(F)F)c1)C2	luminescence	18.5 µM
Cc1cc(NC(=O)c2c(C)c(C(=O)C(=O)NC3(C)CCCN(C(=O)Nc4ccc(F)c(F)c4)C3)n(C)c2C)ccc1F	MTT	>30 µM
COc1cc(F)cc(-c2ccc(C(=O)N(Cc3cccc(OCCCCCC(=O)OC(=O)O)c3)C(C)C)cc2)c1	-	>20 µM
Cc1cc(NC(=O)c2c(C)c(C(=O)C(=O)NC3(C)CCC(O)CC3)n(C)c2-c2ccccn2)ccc1F	MTT	>30 µM
CC(C)N(Cc1cccc(OCCCCCC(=O)OC(=O)O)c1)C(=O)c1ccc(-c2cccc(Br)c2)cc1	-	>20 µM
CNC(=O)c1ccc(-n2c(NC(C)C)nc3c(c2=O)C[C@@H](C)N(C(=O)c2ccc(C(F)(F)F)c(Br)c2)C3)cc1	luminescence	>50 µM
COc1cc2c(cc1OC)C1(CC=CCC1)N(C(C)=O)CC2	-	>20 µM
CC(C)(C)c1ccc(-c2ccc3c(NCCCNCc4ccco4)ccnc3c2)cc1	fluorescence	3.15 µM
CCC1(NC(=O)C(=O)c2c(C)c(C(=O)Nc3ccc(F)c(C)c3)c(C)n2C)CCN(c2cccnn2)CC1	MTT	>30 µM
COc1ccc(CCNC(=O)CCCCC(C)=O)cc1OC	-	<7.5 µM
COc1cccc(CNCCCNc2ccnc3cc(C4CCCCC4)ccc23)c1O	fluorescence	1.08 µM
CCOC(=O)CC(=O)NCC(OCC)(OCC)c1ccc2c(c1)OCO2	-	>20 µM
COc1cccc(CNCCCNc2ccnc3cc(-c4cccc5ccccc45)ccc23)c1O	fluorescence	2.52 µM

The last 2 rows once more:

structure | method | result
CCOC(=O)CC(=O)NCC(OCC)(OCC)c1ccc2c(c1)OCO2 | - | >20 µM
COc1cccc(CNCCCNc2ccnc3cc(-c4cccc5ccccc45)ccc23)c1O | fluorescence | 2.52 µM